Reference: PMC9202147, “In vitro anti-HIV and cytotoxic effects of pure compounds isolated from Croton macrostachyus Hochst. Ex Delile” (BMC Complementary Medicine and Therapies, 2022)

Tested on: HIV-1IIIB virus
Test: Anti-HIV activity: inhibition of HIV-1-induced cytopathic effect in MT-4 cells, MTT colorimetric assay
Format: cell-based
Settings: ratio of CC50 to EC50, MT-4 cells
Method: The effects of the test compounds in preventing cytopathic effects that occur because of HIV-1 replication were evaluated by MTT colorimetric assay. MT-4 cells suspended at 1 X 10^8 cells/ml were infected with 640 μL of HIV-1IIIB virus at 1.26 X10^8 TCID50/ml. After infection, 200 μl HIV-infected MT-4 cells (1 X10^5 cells/well) in growth media were added to each well. The plates were preincubated for 24 h at 37 °C to allow stabilization. Then, 50 μL of the test compounds (at a concentration of 4 mg/ml) were added to the first column of the well. With a multichannel pipette, 50 μL was transferred (in triplicate) from the wells labeled 1 to wells labeled 2. Such transfers were continued (serial dilution), moving from left to right, changing tips prior to mixing contents of the next column of wells. Finally, 50 μL was discarded from the wells in column 12. Different concentrations ([…]) of test compounds were prepared through serial dilution. Each dilution was tested in triplicates. The microtiter plates were incubated at 37 °C in a 5% CO2 incubator for 5 days. […] After 5 days of incubation, cell viability was determined by the MTT assay described. All compounds were assayed in triplicate.

C[C@H](Cn1cnc2c(N)ncnc21)OCP(=O)(O)O [TDF, Tenofovir, reference compound]
SI (selective index): 176.5
